Compound potency records, mixed from different reports. Data source: NIAID ChemDB in PubChem.

Common to all: host cell toxicity; cells: CEM; read-out: CC50

Blank or dashed fields: not listed here.

smiles	read by	result
CNC[C@H](O)c1ccc(O)c(O)c1	cell count	100 µg/mL
O=S(=O)(Nc1nnc2c3ccccc3ccn12)c1ccc(F)cc1S	-	>200 µM
Nc1nc2c(ncn2COC(CO)CO)c(=O)[nH]1	XTT	>10 µM
Cc1ccnc2c1N(CN1CCN(Cc3ccccc3)CC1)C(=O)c1cccnc1N2C1CC1	XTT	>200 µM
CCCCCCOCCCCCCC(=O)O	-	60 µM
Cc1ccnc2c1NC(=O)c1cccnc1N2C1CC1	XTT	>200 µM
Nc1nc2c(ncn2COCCO)c(=O)[nH]1	visual reading	>20 µM
CCN(C)C(=O)c1cnnn1C1OC(CO[Si](C)(C)C(C)(C)C)C2(OS(=O)(=O)C=C2N)C1O[Si](C)(C)C(C)(C)C	-	≥250 µM
Cc1cc(S(=O)(=O)Nc2nnc3ccccn23)c(S)cc1Cl	-	>200 µM
O=C(NCc1ccc(O)c(O)c1)c1ccc2ccc(C(=O)O)c(O)c2n1	MTT	>100 µM
Cc1cc(N[C@H](C)c2cccc3ccccc23)cc(=O)o1	MTT	83 µM
NCC(=O)c1ccc(O)c(O)c1	cell count	>100 µg/mL
CCCCCOCCCCCCCC(=O)O	-	68 µM
Cc1ccnc2c1N(CN1CCN(c3ccc(F)cc3)CC1)C(=O)c1cccnc1N2C1CC1	XTT	>200 µM
O=C(O)/C=C/c1ccc(O)c(O)c1.O=C(O)CCc1ccc(O)c(O)c1	cell count	≥100 µg/mL
O=c1[nH]cc(C2C=CC(CO)(CO)C2)c(=O)[nH]1	XTT	>100 µM
O=C(Nc1ccc(O)c(O)c1)Nc1ccc2ccc(C(=O)O)c(O)c2n1	MTT	70 µM
O=C1C(Cl)=C(Cl)C(=O)c2ccccc21	MTS	5 µM
CCCCCCCCOCCCCC(=O)O	-	48 µM
COc1cc(CNC(=O)c2ccc3ccc(C(=O)O)c(O)c3n2)cc(O)c1O	MTT	100 µM
Nc1ncc(C2C=CC(CO)(CO)C2)c(=O)[nH]1	XTT	99 µM
CCNC(=O)c1cnnn1C1OC(CO[Si](C)(C)C(C)(C)C)C2(OS(=O)(=O)C=C2N)C1O[Si](C)(C)C(C)(C)C	-	≥250 µM
CCCCCCCCCOCCCC(=O)O	-	68 µM
Cc1ccnc2c1N(CN1CCN(c3ccc(Cl)cc3)CC1)C(=O)c1cccnc1N2C1CC1	XTT	>1000 µM
O=C(CNC(=O)c1ccccc1SCC(=O)NC12CC3CC4CC(C1)C4(C3)C2)Nc1ccc(Cl)cc1	trypan blue	5 µM
OCc1cccc(-c2cccc(CO)c2O)c1O	trypan blue	150 µM
Cc1cc(N[C@H](C)c2cccc3ccccc23)c(C(=O)C(Cl)Cl)c(=O)o1	MTT	6.5 µM
Cc1cn([C@H]2C[C@H](N=[N+]=[N-])[C@@H](COC(=O)CNNC(=O)c3ccncc3)O2)c(=O)[nH]c1=O	XTT	>1000 µM
CC(C)(C)[Si](C)(C)OCC1OC(n2nncc2C(=O)NC2CCC2)C(O[Si](C)(C)C(C)(C)C)C12OS(=O)(=O)C=C2N	-	>250 µM
CCCCCCCOCCCCCC(=O)O	-	128 µM
Cc1cc(NCc2ccccc2)cc(=O)o1	MTT	148 µM
Cc1ccnc2c1N(CN1CCN(C)CC1)C(=O)c1cccnc1N2C1CC1	XTT	>200 µM
Cn1c(=O)sn(-c2cccc3ccccc23)c1=O	MTS	>10 µM
O=C(Nc1ccc(O)c(O)c1)c1ccc2ccc(C(=O)O)c(O)c2n1	MTT	100 µM
Cc1cc(S(=O)(=O)Nc2nc(N)nc(N3CCOCC3)n2)c(SCC(=O)O)cc1Cl	-	>200 µM
C[C@]12CC[C@H](O)C[C@@H]1CC[C@@H]1[C@@H]2CC[C@]2(C)C(=O)[C@H](Br)C[C@@H]12	trypan blue	2.6 µM
COC(=O)C[C@@H](NP(=O)(OC[C@H]1C=C[C@@H](n2cnc3c(N)ncnc32)C1)Oc1ccccc1)C(=O)OC	trypan blue	≥250 µM
Cc1cn([C@@H]2O[C@H](C)C3(OS(=O)(=O)C=C3N)[C@H]2O[Si](C)(C)C(C)(C)C)c(=O)[nH]c1=O	trypan blue	96 µg/mL
CCCCCCCCCCCCCC(=O)OC[C@@H](COP(=O)(O)OC[C@@H]1CC[C@H](n2cc(C)c(=O)[nH]c2=O)O1)OC(=O)CCCCCCCCCCCCC	trypan blue	820 µM
Cc1cc(S(=O)(=O)/N=C(\NN)Nc2ccc(Cl)cc2)c(S)cc1Cl	-	10 µM
Cc1cn([C@@H]2O[C@H](CCC(C)C)C3(OS(=O)(=O)C=C3N)[C@H]2OC(=O)c2ccccc2)c(=O)[nH]c1=O	trypan blue	27 µg/mL

Repeating the first 2 entries:

smiles	read by	result
CNC[C@H](O)c1ccc(O)c(O)c1	cell count	100 µg/mL
O=S(=O)(Nc1nnc2c3ccccc3ccn12)c1ccc(F)cc1S	-	>200 µM

Lines come from different laboratories, so protocols vary. CCn: concentration that lowers growth or viability of the cells by n%.